Values quoted from earlier work, collected in publication PMC9264115, “Pd-catalyzed C–C and C–N cross-coupling reactions in 2-aminothieno[3,2-d]pyrimidin-4(3H)-one series for antiplasmodial pharmacomodulation” (RSC Advances, 2022).

Test system: K1 culture-adapted P. falciparum strain
Set-up: method as in PMID 25791675
Conditions: from CC50 HepG2 and EC50 PfK1; reference values; ratio CC50 / EC50; cited from earlier work

Row | SMILES | SI (selectivity index)
1 | Cc1ccc(-c2cc3nc(NC(C)(C)C)[nH]c(=O)c3s2)cc1 [M1 (free base), gamhepathiopine] | 128
2 | C[C@H]1c2cccc(O)c2C(=O)C2=C(O)[C@]3(O)C(=O)C(C(N)=O)=C(O)[C@@H](N(C)C)[C@@H]3[C@@H](O)[C@@H]21 [Doxycycline, doxycycline] | 4
3 | Cc1ccc(-c2cc3nc(NC(C)(C)C)[nH]c(=O)c3s2)cc1 [Compound M1, gamhepathiopine] | 533
4 | O=C1C(O)=C([C@H]2CC[C@H](c3ccc(Cl)cc3)CC2)C(=O)c2ccccc21 [Atovaquone, atovaquone] | >12 000
